# System: HIV-1
# Settings: tested at 25 μM
compound,measurement,value
O=C(C=C(O)c1nnn[nH]1)c1c[nH]c2ccc(Cl)cc12,antiviral activity in single cycle assay,did not display any antiviral activity
